A mixed list of measured activities; the numbers were collected in NIAID ChemDB.

All rows: whole-cell or culture tests; agent: Cryptococcus neoformans; method: broth dilution; endpoint: MIC

An empty or dashed field is not shown.

structure,strain or isolate,conditions,result
O=[N+]([O-])c1ccc(C=Nc2ccccc2O)cc1,27JF,-,32 µg/mL
C/C1=C\C(=O)c2c(C)coc2C/C(C)=C/CC1,ATCC 22402,-,128 µg/mL
CCC(C)CC(C)CCCCCCCCC(=O)N[C@H]1C[C@@H](O)[C@H](NCCN)NC(=O)[C@@H]2[C@@H](O)CCN2C(=O)[C@H]([C@H](O)CCN)NC(=O)[C@H]([C@H](O)[C@@H](O)c2ccc(O)cc2)NC(=O)[C@@H]2C[C@@H](O)CN2C(=O)[C@H]([C@@H](C)O)NC1=O,B 35735,-,16 µg/mL
Cc1nc2c(s1)C(=O)C(Nc1ccc(C#N)cc1)=C(Cl)C2=O,KCCM 50564,-,12.5 µg/mL
CCC(C)n1ncn(-c2ccc(N3CCN(c4ccc(OC[C@H]5CO[C@](Cn6cncn6)(c6ccc(Cl)cc6Cl)O5)cc4)CC3)cc2)c1=O,Clinical isolate (IM 031631),-,<0.015 µg/mL
O=c1c(N2CCOCC2)c(N2CCN(S(=O)(=O)Cc3ccccc3)CC2)cnn1-c1ccccc1,C297,-,200 µg/mL
Oc1ccc(O)c(C=Nc2ccccc2O)c1,LMM 820,-,5.7 µg/mL
Cc1nc2c(s1)C(=O)C(Nc1ccc(C)c(C)c1)=C(Cl)C2=O,KCCM 50564,-,6.3 µg/mL
N=c1oc2ccccc2c2csc(N)c12,IP 90526,-,4 µg/mL
CCCCCCCCCCCCCCCC(=O)NC(CCCN)C(=O)NC(CCCN)C(=O)NC(CCCN)C(N)=O,ATCC 2344,-,6.25 µg/mL
CC(=O)c1cn([C@@H]2O[C@H]([C@H](NC(=O)[C@@H](N)[C@H](C)[C@H](O)c3ccc(O)cn3)C(=O)O)[C@@H](O)[C@H]2O)c(=O)[nH]1,YC203,-,>50 µg/mL
COc1cc2oc3cc(O)cc(O)c3c(=O)c2c2c1OC(C)(C)C=C2,-,-,>64 µg/mL
Oc1ccccc1N=Cc1ccc2c(c1)OCO2,5396,-,5.7 µg/mL
Cn1nc(Cc2ccc(Cl)cc2)c2ccccc2c1=O,Clinical isolate (IM 972724),-,3.9 µg/mL
COc1ccc(NC2=C(Cl)C(=O)c3nc(C)sc3C2=O)cc1,KCCM 50564,-,6.3 µg/mL
COc1c(O)ccc2c(=O)c3c(O)cc4c(c3oc12)C(C)(C)C(C)O4,-,-,42 µg/mL
Oc1cccc(C=Nc2ccccc2O)c1,C-3-1,-,2.8 µg/mL
CCCCCCCCCC(=O)NC(CCCN)C(=O)NC(CCCN)C(=O)NC(CCCN)C(=O)NC(CCCN)C(N)=O,ATCC 2344,-,100 µg/mL
CC1=C2C(=O)c3c(C)coc3C[C@@]2(C)[C@H](O)C[C@H]1O,ATCC 22402,-,128 µg/mL
Cc1nc2c(s1)C(=O)C(Nc1ccc(F)cc1)=C(Cl)C2=O,KCCM 50564,-,6.3 µg/mL
COC(=O)c1c(N)oc2cc(C)c(O)cc12,KCCM 50564,-,6.3 µg/mL
CC1=C2C3=C4[C@@](C)(C(=O)[C@]2(O)OC1=O)[C@@H]1C[C@@H]1[C@@]4(O)C[C@@H]1[C@]32OC(=O)C3=C2C[C@H]2[C@](O)(COC(=O)/C(C)=C/COC(=O)CCC(=O)OC3)[C@H]3C[C@H]3[C@]12C,ATCC 22402,-,64 µg/mL
Nc1[nH]c(=O)ncc1F,ATCC66031,72 h,0.5 µg/mL
CNC(NC)c1ccc2cc(-n3cc(CCCO)nn3)c(=O)oc2c1,ATCC 28957,-,>750 µg/mL
C[C@H]1[C@H](O)[C@@H](C)/C=C/C=C/C=C/C=C/C=C/C=C/C=C/[C@H](O[C@@H]2O[C@H](C)[C@@H](O)[C@H](N)[C@@H]2O)C[C@@H]2O[C@](O)(C[C@@H](O)C[C@@H](O)CC[C@H](O)[C@@H](O)C[C@@H](O)CC(=O)O[C@H]1C)C[C@H](O)[C@H]2C(=O)O,ATCC 32608,-,0.05 µM
CCCCCCCC(=O)NC(CCCN)C(=O)NC(CCCN)C(=O)NC(CCCN)C(N)=O,ATCC 2344,-,>100 µg/mL
Cc1nc2c(s1)C(=O)C(Nc1ccc(Br)cc1)=C(Cl)C2=O,KCCM 50564,-,6.3 µg/mL
CCC(C)CC(C)CCCCCCCCC(=O)N[C@H]1C[C@@H](O)[C@H](NCCN)NC(=O)[C@@H]2[C@@H](O)CCN2C(=O)[C@H]([C@H](O)CCN)NC(=O)[C@H]([C@H](O)[C@@H](O)c2ccc(O)cc2)NC(=O)[C@@H]2C[C@@H](O)CN2C(=O)[C@H]([C@@H](C)O)NC1=O,C297,-,>16 µg/mL
Oc1ccccc1C=Nc1ccccc1O,VM-MCMMPI,-,5.7 µg/mL
COC(=O)c1c(N)oc2c(C)c(C)c(O)c(Sc3ccc(C)c(C)c3)c12,KCCM 50564,-,6.3 µg/mL
CC1=C2C3=C4[C@](C)([C@@H]5C[C@@H]5[C@@]4(O)C[C@@H]4[C@]35OC(=O)C3=C5C[C@H]5[C@](O)(COC(=O)/C(C)=C/COC(=O)CCC(=O)OC3)[C@H]3C[C@H]3[C@]45C)[C@H](O)[C@]2(O)OC1=O,ATCC 22402,-,64 µg/mL

Rows are shuffled and stem from different studies.